Pooled drug test results. Numbers come from NIAID ChemDB, via PubChem.

Common to all: whole-cell or culture tests; organism: Herpes simplex virus 1

An empty or dashed field is not shown. Rows are shuffled and stem from different studies. ECn is the concentration giving n% inhibition of infection, replication or growth.

| smiles | measure | strain or isolate | read by | cells | result |
|---|---|---|---|---|---|
| Nc1ncnc2c1ncn2CCOCP(=O)(O)O | EC50 | KOS S2242-resistant | cytopathic effect | HEL | 54 µg/mL |
| Nc1ccn([C@@H]2C[C@H](CO)[C@@H](O)[C@H]2O)c(=O)n1 | EC50 | KOS | cytopathic effect | PRK | 100 µg/mL |
| CN[C@@H]1[C@@H](O)[C@@H](O[C@@H]2[C@@H](O)[C@H](O[C@H]3O[C@H](CN)[C@@H](O)[C@H](O)[C@H]3N)[C@@H](N)C[C@H]2N)OC[C@]1(C)O | EC50 | KOS | cytopathic effect | HeLa | >100 µg/mL |
| O=C(CP(=O)(O)O)OC[C@H]1O[C@@H](n2cc(CCCl)c(=O)[nH]c2=O)C[C@@H]1O | EC50 | BRAND | cytopathic effect | VERO | >24.2 µM |
| Nc1nc2c(ncn2COCCOP(=O)(O)C(=O)O)c(=O)[nH]1 | EC50 | L2/R | cytopathic effect | VERO | 286 µM |
| Nc1ncnc2c1ncn2C[C@@H](CO)OCP(=O)(O)O | EC50 | KOS GCV-resistant | cytopathic effect | HEL | 0.1 µg/mL |
| CCOC(=O)P(=O)(OC)OC[C@H]1O[C@@H](n2cc(I)c(=O)[nH]c2=O)C[C@@H]1O | EC50 | TK- | cytopathic effect | VERO | >19.8 µM |
| CCCCCCCCCCCC(=O)OC[C@H](COP(=O)([O-])OCC[N+](C)(C)C)OC(=O)CCCCCCCCCCC | EC50 | KOS | cytopathic effect | HeLa | >200 µg/mL |
| Nc1ncnc2c1ccn2[C@H]1C[C@H](O)[C@@H](CO)O1 | EC50 | KOS | - | HEL | 100 µM |
| CC(=O)NC1[C@H](COC[C@@H]2C(CO)O[C@@H](COC[C@@H]3C(CO)O[C@@H](O)C(NC(C)=O)[C@@H]3O)C(NC(C)=O)[C@@H]2O)OC(CO)[C@@H](O)[C@H]1O | EC50 | KOS | cytopathic effect | HeLa | >200 µg/mL |
| O=c1[nH]c(=O)n([C@H]2C[C@H](O)[C@@H](CO)O2)cc1/C=C/Br | EC50 | KOS PMEA-resistant | cytopathic effect | HEL | 0.003 µg/mL |
| N#Cc1cn([C@@H]2O[C@H](CO)[C@@H](O)[C@@H]2O)c2ncnc(N)c12 | EC50 | KOS | cytopathic effect | PRK | 7 µg/mL |
| COC(=O)c1c(OC)cc2cc3c(c(O)c2c1C)C(=O)[C@]1(O)C(=O)C=C(OC)[C@@H](O)[C@]1(O)C3=O | EC50 | KOS | cytopathic effect | HeLa | 32 µM |
| Nc1ccn(C[C@@H](CO)OCP(=O)(O)O)c(=O)n1 | EC50 | KOS HPMPA-resistant | cytopathic effect | HEL | 2.7 µg/mL |
| C/C=C\C(C)=C\[C@H](C)C(=O)C[C@H](O)CC1CC(=O)NC(=O)C1 | EC50 | KOS | cytopathic effect | HeLa | 49 µM |
| O=C(O)P(=O)(O)O | EC90 | PFA-resistant-5 | virus yield | HeLa | 830 µM |
| N#Cc1cn([C@H]2C[C@H](O)[C@@H](CO)O2)c2ncnc(N)c12 | EC50 | KOS | cytopathic effect | PRK | ≥1 µg/mL |
| Nc1ncc2c(ncn2COC(CO)CO)n1 | EC50 | KOS HPMPA-resistant | cytopathic effect | HEL | 0.3 µg/mL |
| Nc1ncnc2c1ncn2CCOCP(=O)(O)O | EC90 | PMEA-resistant-1 | virus yield | HeLa | >2000 µM |
| Nc1ncnc2c1ccn2[C@H]1C[C@H](O)[C@@H](COP(=O)(O)COC(=O)[C@@H](N)CC(=O)O)O1 | EC50 | KOS | - | HEL | >100 µM |
| CCOC(=O)P(=O)(O)OC[C@H]1O[C@@H](n2cc(CCCl)c(=O)[nH]c2=O)C[C@@H]1O | EC50 | TK- | cytopathic effect | VERO | >70.3 µM |
| O=C(O)C1CSCN1 | EC50 | KOS | cytopathic effect | HeLa | >200 µg/mL |
| Nc1ncnc2c1ccn2[C@@H]1O[C@H](CO)[C@H](O)[C@H]1O | EC50 | B2006 (TK-) | cytopathic effect | PRK | 0.7 µg/mL |
| COc1ccc(-c2cc(=O)c3c(O)cc(O)cc3o2)cc1 | EC50 | - | - | VERO | >20 µg/mL |
| Nc1ccn(C[C@@H](CO)OCP(=O)(O)O)c(=O)n1 | EC50 | KOS | - | HEL | 2 µM |
| NC[C@H]1O[C@H](O[C@H]2[C@H](O[C@@H]3O[C@H](CO)[C@@H](O)[C@H]3O)[C@@H](O)[C@H](N)C[C@@H]2N)[C@H](N)[C@@H](O)[C@@H]1O | EC50 | KOS | cytopathic effect | HeLa | >100 µg/mL |
| CC(C)(C)C(=O)OCOC(=O)CN(CC(=O)OCOC(=O)C(C)(C)C)P(=O)(OC[C@H]1O[C@@H](n2cnc3c(N)ccnc32)C[C@@H]1O)Oc1ccccc1 | EC50 | KOS | - | HEL | >20 µM |
| O=c1c(O)c(-c2ccc(O)cc2)oc2cc(O)cc(O)c12 | EC50 | TK- | - | VERO | 2 µg/mL |
| C[C@@H]1O[C@@H](O[C@H]2C[C@@H](O)[C@]3(CO)[C@H]4[C@H](O)C[C@]5(C)[C@@H](C6=CC(=O)OC6)CC[C@]5(O)[C@@H]4CC[C@]3(O)C2)[C@H](O)[C@H](O)[C@H]1O | EC50 | KOS | cytopathic effect | HeLa | >200 µg/mL |
| O=C(OCc1ccccc1)P(=O)(O)OC[C@H]1O[C@@H](n2cc(CCCl)c(=O)[nH]c2=O)C[C@@H]1O | EC50 | BRAND | cytopathic effect | VERO | >20.5 µM |
| Nc1nc(N)c2ncn(CCOCP(=O)(O)O)c2n1 | EC50 | KOS S2242-resistant | cytopathic effect | HEL | 27.6 µg/mL |
| Nc1ncnc2c1ccn2[C@@H]1O[C@H](CO)[C@@H](O)[C@H]1O | EC50 | KOS | cytopathic effect | HeLa | >200 µg/mL |

A second listing of 2 rows from above:

smiles	measure	strain or isolate	read by	cells	result
Nc1nc(N)c2ncn(CCOCP(=O)(O)O)c2n1	EC50	KOS S2242-resistant	cytopathic effect	HEL	27.6 µg/mL
O=c1[nH]c(=O)n([C@H]2C[C@H](O)[C@@H](CO)O2)cc1/C=C/Br	EC50	KOS PMEA-resistant	cytopathic effect	HEL	0.003 µg/mL